# Data reported in patent US6596700B2, “Methods of treating hepatitis delta virus infection with β-L-2'-deoxy-nucleosides” (priority 2000, dated 2003).
# System: hepatitis B virus
# Assay: anti-hepatitis B virus activity in transfected Hep G-2 (2.2.15) cells
# Type: cell-based
# Settings: cytotoxicity IC50 / EC50
compound,measurement,value
"O=c1ccn([C@@H]2C[C@@H](O)[C@H](CO)O2)c(=O)[nH]1 [β-L-dU, β-L-2′-deoxyuridine]",Selectivity Index IC50/EC50,>40
